Results of unrelated studies side by side (data: NIAID ChemDB).

Shared fields: whole-cell or culture tests; species: Aspergillus niger

An empty or dashed field is not shown. Neighbouring rows are from separate reports. MIC50, MIC90 and the like: level of inhibition, or share of isolates inhibited. Two numbers with a dash give a range or band.

compound | measure | strain or isolate | read by | setting | result
CCN=C(Nc1cccc(C)c1)N(CC)c1nc2cc(C)ccc2s1 | MIC | - | - | - | 120–150 µg/mL
OB(O)c1c(F)cc(F)cc1F | MIC | - | turbidity | - | 125 µg/mL
COc1cc(C=O)ccc1OP1(Oc2ccc(C=O)cc2OC)=NP(Oc2ccc(C=O)cc2OC)(Oc2ccc(C=O)cc2OC)=NP(Oc2ccc(C=O)cc2OC)(Oc2ccc(C=O)cc2OC)=N1 | MIC | - | agar diffusion / agar | - | >100 µg/mL
CC(C)CC1NC(=O)CC(CCCCCCCCC(C)O)OC(=O)C(CC(C)C)NC(=O)C(CC(C)C)NC(=O)C(CC(C)C)NC(=O)C(C(C)C)NC(=O)C(CC(=O)O)NC(=O)C(CC(C)C)NC1=O | MIC | ATCC 16404 | absorbance | - | 16 µg/mL
CCN1CCN(c2nc(Nc3ccc(C#N)c(C(F)(F)F)c3)nc(Oc3cccc4cccnc34)n2)CC1 | MIC | MTCC 282 | agar | - | 50 µg/mL
CCN=C(Nc1ccc(Cl)cc1)N(CC)c1nc2ccc(Cl)cc2s1 | MIC | - | - | - | 40–60 µg/mL
CC(=O)N1CCN(c2nc(Nc3ccc(C#N)c(C(F)(F)F)c3)nc(Oc3cccc4cccnc34)n2)CC1 | MIC | MTCC 282 | agar | - | 12.5 µg/mL
CCn1sc(=Nc2ccc(C(C)=O)cc2)n(CC)c1=Nc1ccc(C(C)=O)cc1 | MIC | - | - | - | 80–100 µg/mL
Cn1cnc(-c2ccccc2)c1 | MIC | ATCC 16404 | broth dilution | 48 h | >512 µg/mL
CCCCCCCCCCCCCC(=O)NC(CCCN)C(=O)NC(CCCN)C(=O)NC(CCCN)C(=O)NC(CCCN)C(=O)NC(CCCN)C(N)=O | MIC | ATCC 64028 | broth dilution | - | 6.25 µg/mL
Cn1ccnc1Cc1nccn1C | MIC | ATCC 16404 | broth dilution | 24 h | 500 µg/mL
Cc1ccc(-c2n[nH]c(COc3nc(C(F)(F)F)nc4ccccc34)n2)cc1 | MIC100 | MTCC 282 | - | - | 12.5 µg/mL
O=C(COc1ccc(F)cc1)c1ccccc1 | MIC | ATCC 16404 | broth dilution | 72 h | >125 µg/mL
CC(=O)N1CCC(n2cc(-c3nc(-c4ccc(Cl)cc4)n[nH]3)nn2)CC1 | MIC | - | agar | - | 50 µg/mL
O=c1cc(Cc2c3ccccc3nc3ccccc23)c2cc(O)ccc2o1 | MIC | - | agar diffusion / agar | - | 250 µg/mL
COc1ccc(-c2n[nH]c(COc3nc(C(F)(F)F)nc4ccccc34)n2)cc1 | MIC100 | MTCC 282 | - | - | 25 µg/mL
COc1ccc(-c2n[nH]c(-c3cn(C4CCN(C)CC4)nn3)n2)cc1 | MIC | - | agar | - | 20 µg/mL
Nc1[nH]c(=O)nc2oc3ccccc3c(=O)c12 | MIC100 | MTCC 282 | broth dilution | - | 500 µg/mL
COc1cc(/C=C2/SC(=O)N(CC(=O)Nc3nc4ccc(SC#N)cc4s3)C2=O)cc(OC)c1OC | MIC | MTCC 282 | broth dilution / visual reading | - | 1000 µg/mL
Cc1ccc(-c2nc3ccccc3c(=O)n2-c2ccc(C(=O)NN3C(=O)/C(=C/c4cccc([N+](=O)[O-])c4)SC3c3ccc(F)cc3)cc2)cc1 | MIC100 | MTCC 282 | - | - | 50 µg/mL
Nc1nc(N)c2c(=O)c3ccccc3oc2n1 | MIC100 | MTCC 282 | broth dilution | - | 500 µg/mL
CCCCCCCCCCCCCCCC(=O)NC(CCCN)C(=O)NC(CCCN)C(=O)NC(CCCN)C(=O)NC(CCCN)C(N)=O | MIC | ATCC 64028 | broth dilution | - | 6.25 µg/mL
Cc1ccc(-c2nc3ccccc3c(=O)n2-c2ccc(C(=O)NN3C(=O)/C(=C/c4ccc(O)cc4)SC3c3ccc(F)cc3)cc2)cc1 | MIC100 | MTCC 282 | - | - | 250 µg/mL
O=C(COc1cccc(Cl)c1)c1ccccc1 | MIC | ATCC 16404 | broth dilution | 72 h | >125 µg/mL
c1ccc(N2CCC(n3cc(CN4CCc5sccc5C4)nn3)CC2)cc1 | MIC | NCIM 1196 | agar | - | 100 µg/mL
Cc1ccc(/C=C2/SC(=O)NC2=O)cc1 | MIC | MTCC 282 | broth dilution / visual reading | - | 500 µg/mL
CCCCCCCCCCCCCCCCCCCCCC[C@H](O)CCCCCC | MIC | - | broth dilution | - | 250 µg/mL
COc1ccccc1OC/C(=N/O)c1ccccc1 | MIC | ATCC 16404 | broth dilution | 48 h | >125 µg/mL
CCCCCCCCCCCCCCCCCC(=O)NC(CCCN)C(=O)NC(CCCN)C(=O)NC(CCCN)C(N)=O | MIC | ATCC 64028 | broth dilution | - | 3.1 µg/mL
CCCCCOc1ccc(-c2cc(-c3ccc(C(=O)N[C@H]4C[C@@H](O)[C@@H](O)NC(=O)[C@@H]5[C@@H](O)[C@@H](C)CN5C(=O)[C@H]([C@H](O)CC(N)=O)NC(=O)[C@H]([C@H](O)[C@@H](O)c5ccc(O)c(OS(=O)(=O)O)c5)NC(=O)[C@@H]5C[C@@H](O)CN5C(=O)[C@H]([C@@H](C)O)NC4=O)cc3)no2)cc1 | MIC50 | - | broth dilution | - | 0.016 µg/mL
CN1CCN(c2nc(Nc3ccc(C#N)c(C(F)(F)F)c3)nc(Oc3cccc4cccnc34)n2)CC1 | MIC | MTCC 282 | agar | - | 100 µg/mL
CC(=O)N1CCC(n2cc(-c3nc(-c4ccc(C)cc4)n[nH]3)nn2)CC1 | MIC | - | agar | - | 35 µg/mL
CCn1sc(=Nc2ccccc2OC)n(CC)c1=Nc1ccccc1OC | MIC | - | - | - | 100–120 µg/mL
COc1cc(/C=N/OC(C)=O)ccc1OP1(Oc2ccc(/C=N/OC(C)=O)cc2OC)=NP(Oc2ccc(/C=N/OC(C)=O)cc2OC)(Oc2ccc(/C=N/OC(C)=O)cc2OC)=NP(Oc2ccc(/C=N/OC(C)=O)cc2OC)(Oc2ccc(/C=N/OC(C)=O)cc2OC)=N1 | MIC | - | agar diffusion / agar | - | >100 µg/mL
Nc1[nH]c(=S)nc2oc3ccccc3c(=O)c12 | MIC100 | MTCC 282 | broth dilution | - | 500 µg/mL
COc1ccc(/C=C2\SC(c3ccc(F)cc3)N(NC(=O)c3ccc(-n4c(-c5ccc(C)cc5)nc5ccccc5c4=O)cc3)C2=O)cc1 | MIC100 | MTCC 272 | - | - | 100 µg/mL
CCCCCCCCCCCC(=O)NC(CCCN)C(=O)NC(CCCN)C(=O)NC(CCCN)C(=O)NC(CCCN)C(=O)NC(CCCN)C(N)=O | MIC | ATCC 64028 | broth dilution | - | 12.5 µg/mL
CCN=C(Nc1ccc(OCC)cc1)N(CC)c1nc2ccc(OCC)cc2s1 | MIC | - | - | - | 20–40 µg/mL
CCCCCCCC(=O)NC(CCCN)C(=O)NC(CCCN)C(N)=O | MIC | ATCC 64028 | broth dilution | - | >100 µg/mL
N#CSc1ccc2nc(NC(=O)CN3C(=O)S/C(=C/c4ccc(Cl)cc4)C3=O)sc2c1 | MIC | MTCC 282 | broth dilution / visual reading | - | 1000 µg/mL
Nc1ncccc1-c1cc(Cc2ccc(COc3ccccn3)cc2)no1 | MIC50 | - | broth dilution | - | 0.016 µg/mL
COc1cc(/C=N/O)ccc1OP1(Oc2ccc(/C=N/OCc3ccccc3)cc2OC)=NP(Oc2ccc(/C=N/O)cc2OC)(Oc2ccc(/C=N/OCc3ccccc3)cc2OC)=NP(Oc2ccc(/C=N/O)cc2OC)(Oc2ccc(/C=N/OCc3ccccc3)cc2OC)=N1 | MIC | - | agar diffusion / agar | - | >100 µg/mL
FC(F)(F)c1nc(OCc2nc(-c3ccccc3)n[nH]2)c2ccccc2n1 | MIC100 | MTCC 282 | - | - | 25 µg/mL
O=C1CSC(=O)N1 | MIC | MTCC 282 | broth dilution / visual reading | - | 500 µg/mL
OB1OC(N2CCCCC2)c2ccccc21 | MFC | - | turbidity | - | 62.5 µg/mL
COc1cc(/C=N/O)ccc1OP1(Oc2ccc(/C=N/O)cc2OC)=NP(Oc2ccc(/C=N/O)cc2OC)(Oc2ccc(/C=N/O)cc2OC)=NP(Oc2ccc(/C=N/O)cc2OC)(Oc2ccc(/C=N/O)cc2OC)=N1 | MIC | - | agar diffusion / agar | - | >100 µg/mL
FC(F)(F)c1nc(OCc2nc(-c3cccs3)n[nH]2)c2ccccc2n1 | MIC100 | MTCC 282 | - | - | 6.25 µg/mL
N=C(N)c1ccc(OCCCCCCOc2ccc(C(=N)N)cc2)cc1 | MIC | As2 | agar diffusion / agar | - | 33 µg/mL
O=C(c1ccccc1)N1CCC(n2cc(CN3CCc4sccc4C3)nn2)CC1 | MIC | NCIM 1196 | agar | - | >200 µg/mL
Nc1ccc(O)c2ncccc12 | MIC | KCTC 1231 | - | - | 1.6 µg/mL
C[C@H]1N(C(=O)c2ccc(C(F)(F)F)cc2)CCO[C@@]1(Cn1cncn1)c1ccc(F)cc1F | MIC | Isolate 1 | - | - | >64 µg/mL
CCCCCCCCCCCCCC(=O)NC(CCCN)C(N)=O | MIC | ATCC 64028 | broth dilution | - | >100 µg/mL
CCN=C(Nc1ccc(OC)cc1)N(CC)c1nc2ccc(OC)cc2s1 | MIC | - | - | - | 60–80 µg/mL
Cc1ccc(-c2nc3ccccc3c(=O)n2-c2ccc(CONN)cc2)cc1 | MIC100 | MTCC 282 | - | - | >1000 µg/mL
OB1OCc2cc(F)ccc21 | MIC | - | turbidity | - | <0.9 µg/mL
COc1ccc(-c2n[nH]c(COc3ncnc4ccccc34)n2)cc1OC | MIC100 | MTCC 282 | - | - | 6.25 µg/mL
CCn1sc(=Nc2ccc(C)cc2)n(CC)c1=Nc1ccc(C)cc1 | MIC | - | - | - | 100–120 µg/mL
O=C(COc1cccc(F)c1)c1ccccc1 | MIC | ATCC 16404 | broth dilution | 72 h | >125 µg/mL
Cc1ccc(-c2nc3ccccc3c(=O)n2-c2ccc(C(=O)NN3C(=O)/C(=C/c4cccc(O)c4)SC3c3ccc(F)cc3)cc2)cc1 | MIC100 | MTCC 282 | - | - | 1000 µg/mL
CS(=O)(=O)N1CCC(n2cc(-c3nc(-c4ccc([N+](=O)[O-])cc4)n[nH]3)nn2)CC1 | MIC | - | agar | - | 30 µg/mL
O/N=C(\COc1ccccc1)c1ccccc1 | MIC | ATCC 16404 | broth dilution | 72 h | >125 µg/mL
Cc1ccc(-c2nc3ccccc3c(=O)n2-c2ccc(C(=O)NN3C(=O)/C(=C/c4ccccc4[N+](=O)[O-])SC3c3ccc(F)cc3)cc2)cc1 | MIC100 | MTCC 282 | - | - | 500 µg/mL
N#Cc1ccc(Nc2nc(Oc3cccc4cccnc34)nc(N3CCN(c4cccc(Cl)c4)CC3)n2)cc1C(F)(F)F | MIC | MTCC 282 | agar | - | 25 µg/mL
COc1cc(OC/C(=N/O)c2ccccc2)cc(OC)c1OC | MIC | ATCC 16404 | broth dilution | 48 h | >125 µg/mL
Cn1ccnc1C(CC(=O)O)c1nccn1C | MIC | ATCC 16404 | broth dilution | 24 h | >512 µg/mL
Cc1ccc(-c2nc3ccccc3c(=O)n2-c2ccc(C(=O)NN3C(=O)/C(=C/c4ccc(Br)cc4)SC3c3ccc(F)cc3)cc2)cc1 | MIC100 | MTCC 282 | - | - | 1000 µg/mL
C[C@@H](c1ncncc1F)[C@](O)(Cn1cncn1)c1ccc(F)cc1F | MIC | ATCC 16404 | broth dilution | - | 1 µg/mL
CCN1CCC(n2cc(-c3nc(-c4ccc(OC)cc4)n[nH]3)nn2)CC1 | MIC | - | agar | - | 50 µg/mL
Nc1[nH]c(=S)nc2oc3c(Br)cc(Br)cc3c(=O)c12 | MIC100 | MTCC 282 | broth dilution | - | 1000 µg/mL
CCCCCCCCCCCCCCCC(=O)NC(CCCN)C(N)=O | MIC | ATCC 64028 | broth dilution | - | >100 µg/mL
Cc1nc(OCc2nc(-c3ccc(F)cc3)n[nH]2)c2ccccc2n1 | MIC100 | MTCC 282 | - | - | 12.5 µg/mL
Fc1cc(F)c(B2Oc3ccccc3O2)c(F)c1 | MFC | - | turbidity | - | 250 µg/mL
CCCCCCCCCC(=O)NC(CCCN)C(=O)NC(CCCN)C(=O)NC(CCCN)C(=O)NC(CCCN)C(N)=O | MIC | ATCC 64028 | broth dilution | - | 100 µg/mL

The first 6 rows once more:

compound	measure	strain or isolate	read by	setting	result
CCN=C(Nc1cccc(C)c1)N(CC)c1nc2cc(C)ccc2s1	MIC	-	-	-	120–150 µg/mL
OB(O)c1c(F)cc(F)cc1F	MIC	-	turbidity	-	125 µg/mL
COc1cc(C=O)ccc1OP1(Oc2ccc(C=O)cc2OC)=NP(Oc2ccc(C=O)cc2OC)(Oc2ccc(C=O)cc2OC)=NP(Oc2ccc(C=O)cc2OC)(Oc2ccc(C=O)cc2OC)=N1	MIC	-	agar diffusion / agar	-	>100 µg/mL
CC(C)CC1NC(=O)CC(CCCCCCCCC(C)O)OC(=O)C(CC(C)C)NC(=O)C(CC(C)C)NC(=O)C(CC(C)C)NC(=O)C(C(C)C)NC(=O)C(CC(=O)O)NC(=O)C(CC(C)C)NC1=O	MIC	ATCC 16404	absorbance	-	16 µg/mL
CCN1CCN(c2nc(Nc3ccc(C#N)c(C(F)(F)F)c3)nc(Oc3cccc4cccnc34)n2)CC1	MIC	MTCC 282	agar	-	50 µg/mL
CCN=C(Nc1ccc(Cl)cc1)N(CC)c1nc2ccc(Cl)cc2s1	MIC	-	-	-	40–60 µg/mL